Pooled drug test results. Numbers come from NIAID ChemDB, via PubChem.

All rows: cytotoxicity tests; measure: CC50

CCn: concentration that lowers growth or viability of the cells by n%. Neighbouring rows are from separate reports. Blank or dashed fields: not listed here. a–b is a range or a potency band.

SMILES	cell line	method	value
COc1cccc2c1c(=O)c1ccccc1n2C	OM-10.1	-	13 µg/mL
COc1ccccc1Oc1ccc2c(NCCCNCc3ccco3)ccnc2c1	HepG2	fluorescence	6.5 µM
C[C@H]1NCc2cc(-c3c(F)cc4c(=O)c(C(=O)O)cn(C5CC5)c4c3OC(F)F)ccc21	CHL	-	109 µg/mL
CCOC(=O)CSc1nnc(CNc2ccc(F)cc2)n1-c1ccccc1	HepG2 2.2.15	-	>100 µM
CC(=O)Nc1cccc(CCNC(=O)Nc2cccc(F)c2)n1	PBMC	-	50 µM
CC(C)CCCC(C)Nc1ccc(C(=O)C2CC2c2ccc(Cl)cc2)cc1	C1008 (Vero cells)	-	235 µg/mL
COC(=O)C1=C(CN2CC(F)(F)[C@@H]3[C@H]2CON3C[C@@H](F)C(C)(C)C(=O)O)NC(c2nccs2)=N[C@H]1c1ccc(F)c(F)c1Cl	HepG2.2.15	WST / absorbance	50 µM
CCOC(=O)c1cc(NC(=O)c2ccccc2)c(=O)n2c1[nH]c1ccccc12	HEF	-	40 µg/mL
COc1cc(OC)cc(-c2ccc(C(=O)N(Cc3cccc(OCCCCCC(=O)OC(=O)O)c3)C(C)C)cc2)c1	RAJI	-	>20 µM
Nc1nc2c(ncn2[C@@H]2C[C@H](CO)[C@H]2CO)c(=O)[nH]1	CD4+ T lymphocytes	-	6.4 µM
COc1ccc(CNc2ccc(C(=O)C3CC3c3ccc(Cl)cc3)cc2)cc1OC	C1008 (Vero cells)	-	394 µg/mL
CCOC(=O)c1c(O)c2cc(Oc3ccc(N(CC)CC)cc3)cnc2n(O)c1=O	HeLa	-	<100 µM
c1ccc(CCc2ccc3c(NCCCNCc4ccco4)ccnc3c2)cc1	HepG2	fluorescence	16 µM
Cc1cnc(Cl)c(/C=C/C(=O)c2ccccc2)c1	RAW 264.7	MTT	16 µM
COc1ccc(O)c2c(=O)c3ccccc3n(C)c12	OM-10.1	-	16 µg/mL
COC(=O)CCCC1=NCCc2cc(OC)c(OC)cc21	HEK 293	-	<7.5 µM
COC(=O)c1ccc(/C=C/C(=O)c2ccccc2)c(Cl)n1	RAW 264.7	MTT	35 µM
CCOC(=O)C1=C(CN2CC(F)(F)[C@@H]3[C@H]2CON3CC[C@@](C)(O)C(=O)O)NC(c2nccs2)=N[C@H]1c1ccc(F)c(F)c1Cl	HepG2.2.15	WST / absorbance	>100 µM
CC(=O)/C=C/c1cc(-c2ccccc2)cnc1Cl	RAW 264.7	MTT	127 µM
COc1nc(N)nc2ccc(-c3ccc(C(=O)NC4CC4)cc3)nc12	Huh7	-	10–20 µM
CC(=O)c1cc(NC(=O)c2ccccc2)c(=O)n2c1[nH]c1ccccc12	HEF	-	40 µg/mL
CC(C)(CF)C(=O)Nc1cccc(NS(=O)(=O)c2ccc(-c3noc(-c4ccccc4)n3)cc2)c1	3T3	-	<16 µM
NC1=NC2C(C=CN2CC(CO)CCO)C(=O)N1	TPA-stimulated BCBL-1	-	165 µM
CCOC(=O)/C=C1\NCCc2cc3c(cc21)OCO3	BJ	-	<7.5 µM
CCOC(=O)c1cc(CC(=O)c2ccccc2)c(=O)n2c1sc1ccccc12	HEP-2	-	40 µg/mL
COc1cccc(CNCCCNc2ccnc3cc(CC(C)C)ccc23)c1O	HepG2	fluorescence	2.92 µM
Nc1nc2c(ncn2COC(CO)CO)c(=O)[nH]1	TPA-stimulated BCBL-1	-	120 µM
Nc1nc(O[C@H]2CCOC2)c2nc(-c3ccc(C(=O)NCCN4CCOCC4)cc3)ccc2n1	Huh7	-	>20 µM
Nc1ncc2c(ncn2COC(CO)CO)n1	TPA-stimulated BCBL-1	-	8.7 µM
CCOC(=O)CCCCCOc1cccc(CN(C(=O)c2ccc(-c3cc(OC)cc(OC)c3)cc2)C(C)C)c1	HEK 293	-	>20 µM
CCCCCCCCNc1ccc(C(=O)C2CC2c2ccc(Cl)cc2)cc1	C1008 (Vero cells)	-	235 µg/mL
CCOC(=O)C1=C(CN2CC(F)(F)[C@H]3[C@@H]2CON3C[C@@H](O)C(C)(C)C(=O)O)NC(c2nc(C)cs2)=N[C@H]1c1cccc(F)c1C	HepG2.2.15	WST / absorbance	31.5 µM
CCOC(=O)/C=C/c1cc(CC)cnc1Cl	RAW 264.7	MTT	7 µM
COC(=O)C1=C(CN2CC(F)(F)[C@@H]3[C@H]2CON3CC[C@@](C)(O)C(=O)O)NC(c2nccs2)=N[C@H]1c1ccc(F)c(F)c1C	HepG2.2.15	WST / absorbance	>100 µM
CC(=O)OCC12CCC3C(CCC4CC(O)CCC43C)C1CC(O)C21OC1C(OC(C)=O)C(C)C(C)C(C)(C)OC(C)=O	P-388	MTT	>50 µg/mL
CC(=O)N1c2ccccc2NC2=C(C(=O)CC(C)(C)C2)C1c1ccc(OCc2ccccc2)cc1	MT4-LTR-LUC	-	>32 µM
O=S(=O)(c1cccc2cnccc12)N1CCNCC1	U-937	-	10.5 µg/mL
CC(C)Oc1cccc(CCNC(=O)Nc2cccc(F)c2)n1	PBMC	-	50 µM
CCOC(=O)CC(=O)NCC(OCC)(OCC)c1ccc2c(c1)OCO2	HepG2	-	>20 µM
O=C(CN1CCN(c2cccc(-c3cc(=O)n(O)c4ncccc34)c2)CC1)N1CCOCC1	HeLa	-	<100 µM
Cc1ccc(NCc2nnc(Sc3ccccc3)o2)cc1	HepG2 2.2.15	-	>100 µM
COC(=O)C1=C(CN2CC(F)(F)[C@@H]3[C@H]2CON3C[C@H](OC)C(C)(C)C(=O)O)NC(c2nccs2)=N[C@H]1c1ccc(F)cc1Cl	HepG2.2.15	WST / absorbance	>100 µM
Cc1cccc(NC(=O)NCCc2ccc3c(n2)NCCC3)c1	PBMC	-	8 µM
CCOC(=O)c1cc(C(=O)O)c(=O)n2c1[nH]c1ccccc12	HEF	-	25 µg/mL
CCOC(=O)C1=C(CN2CC(F)(F)[C@@H]3[C@H]2CON3[C@H](C)[C@H](O)C(C)(C)C(=O)O)NC(c2nccs2)=N[C@H]1c1cccc(F)c1C	HepG2.2.15	WST / absorbance	8.1 µM
CN(C)CC1CNc2nc3ccc4c(c3n2C1)CC(CN(C)C)O4	Huh7.5	-	65 µM
Nc1cccc(-c2cccc(Cc3cc(=O)n(O)c4ncccc34)c2)c1	HeLa	-	<100 µM
CCOC(=O)CCCCCOc1cccc(CN(C(=O)c2ccccc2)C(C)C)c1	RAJI	-	>20 µM
CCOC(=O)C(Cc1ccccc1)NC(=O)NCCc1ccc2c(n1)NCCC2	PBMC	-	14 µM
O=c1[nH]c(=O)n([C@H]2C[C@H](O)[C@@H](CO)O2)cc1/C=C/Br	TPA-stimulated BCBL-1	-	105 µM
COC(=O)C1=C2Nc3ccccc3[C@@]23CCN2C[C@]4(C[C@@H]5C[C@]67CCO[C@H]6CCC6NC[C@@]8(c9cccc(OC)c9N(C4)[C@@H]58)[C@@H]67)[C@@H]4OCCC4(C1)[C@H]23	HL-60	absorbance	>56.94 µM
COc1cccc(CNCCCNc2ccnc3cc(Oc4ccccc4)ccc23)c1O	HepG2	fluorescence	6.8 µM
Cc1cc(C)c(Nc2ccnc(Nc3ccc(C#N)cc3)n2)c(C)c1	PM1	MTT / absorbance	11 µM
O=C(c1ccc(NCc2ccco2)cc1)C1CC1c1ccc(Cl)cc1	C1008 (Vero cells)	-	235 µg/mL
COc1c(N2CCNC(C)C2)ccc2c(=O)c(C(=O)O)cn(C3CC3)c12	CHL	-	133 µg/mL
COc1ccc(C2CC2C(=O)c2ccc(N3CCN(C)CC3)cc2)cc1OC	C1008 (Vero cells)	-	235 µg/mL
Cc1ccc(S(=O)(=O)/N=C2\NC(=O)/C(=C/c3cccnc3)S2)cc1	Huh 5-2	MTS	>140 µM
COc1cccc(OC)c1NC(=O)NCCc1ccc2c(n1)NCCC2	PBMC	-	3.03 µM
O=C(CSc1nnc(CNc2ccc(F)cc2)n1-c1ccccc1)NN=CC(O)C(O)C(O)CO	HepG2 2.2.15	-	>100 µM
CCOC(=O)C1=C(CN2CC(F)(F)[C@@H]3[C@H]2CON3CC[C@](C)(O)C(=O)O)NC(c2nccs2)=N[C@H]1c1cccc(F)c1C	HepG2.2.15	WST / absorbance	>100 µM
CCOc1nc(N)nc2ccc(-c3ccc(NC(=O)C4(N)CC4)c(F)c3)nc12	Huh7	-	>20 µM
CCOC(=O)C1=C(CN2CC(F)(F)[C@H]3[C@@H]2CCN3CC[C@@](C)(O)C(=O)O)NC(c2nccs2)=N[C@H]1c1ccc(F)c(F)c1F	HepG2.2.15	WST / absorbance	39.7 µM
CC(=O)OCC(C)(O)C(C)C(C)C(OC(C)=O)C1OC12C(O)CC1C3CCC4CC(=O)CCC4C3CCC12COC(C)=O	P-388	MTT	>50 µg/mL
CCCC(=O)OCSc1c(F)cccc1C(=O)NCCC(N)=O	CEM-SS	XTT / absorbance	>6 µM
CC(C)c1ccc(NC(=O)NCCc2ccc3c(n2)NCCC3)cc1	PBMC	-	7 µM
CCOC(=O)c1c(O)c2cc(C(=O)NCc3ccccc3)cnc2n(O)c1=O	HeLa	-	<100 µM
COc1cccc(CNCCCNc2ccnc3cc(Cc4ccc(F)cc4Cl)ccc23)c1O	HepG2	fluorescence	2.35 µM
COc1ccccc1CNC(=O)C1=Cc2ccncc2CC1	MA-104	-	<118 µM
N#Cc1cc(C(=O)O)c(=O)n2c1[nH]c1ccccc12	HEF	-	200 µg/mL
CS(=O)(=O)CCNc1nc(N)nc2ccc(-c3ccc(C(=O)NC4CC4)cc3)nc12	Huh7	-	>20 µM
N#Cc1cc(NC(=O)c2ccccc2)c(=O)n2c1[nH]c1ccccc12	HEF	-	40 µg/mL
O=C1N/C(=N\S(=O)(=O)c2ccc(Cl)cc2)S/C1=C\c1cccnc1	Huh 5-2	MTS	>132 µM
O=C(NCCc1ccccc1)C1=Cc2ccncc2CC1	MA-104	-	<136 µM
O=C(NCCc1ccc2c(n1)NCCC2)Nc1ccc(Oc2ccccc2)cc1	PBMC	-	17.3 µM
CCOc1nc(N)nc2ccc(-c3cccc(NS(=O)(=O)C(C)C)c3)nc12	Huh7	-	<10 µM
O=C(NCCN1CCc2ccccc2C1)Nc1ccc(Cl)c(Cl)c1	PBMC	-	4.5 µM
CCOC(=O)C1=C(CN2CC(F)(F)[C@@H]3[C@H]2CON3CC[C@](C)(OC)C(=O)O)NC(c2nccs2)=N[C@H]1c1ccc(F)c(F)c1Cl	HepG2.2.15	WST / absorbance	>50 µM
CCCCCCCCCCCCNc1ccc(C(=O)C2CC2c2ccc(Cl)cc2)cc1	C1008 (Vero cells)	-	235 µg/mL
CCOC(=O)CCCCCOc1cccc(CN(C(=O)c2ccc(-c3cccc(NC=O)c3)cc2)C(C)C)c1	BJ	-	>20 µM
CCOC(=O)c1c(O)c2cc(C(C)=O)cnc2n(O)c1=O	HeLa	-	<100 µM
COc1c(N2CCNC(C)C2)c(F)cc2c(=O)c(C(=O)O)cn(C3CC3)c12	CHL	-	171 µg/mL
CC(C)Oc1ccccc1CNC(=O)c1ccc2cnccc2n1	MA-104	-	>12 µM
Nc1ccc(S(=O)(=O)/N=C2/NC(=O)/C(=C/c3ccc(-c4ccccc4)cc3)S2)cc1	Huh 5-2	MTS	>115 µM
COc1cccc2[nH]c3ccccc3c(=O)c12	OM-10.1	-	17 µg/mL

8 of the rows above, restated:

{"SMILES": "CC(=O)OCC(C)(O)C(C)C(C)C(OC(C)=O)C1OC12C(O)CC1C3CCC4CC(=O)CCC4C3CCC12COC(C)=O", "cell line": "P-388", "method": "MTT", "value": ">50 µg/mL"}
{"SMILES": "COc1cccc2[nH]c3ccccc3c(=O)c12", "cell line": "OM-10.1", "value": "17 µg/mL"}
{"SMILES": "COC(=O)C1=C2Nc3ccccc3[C@@]23CCN2C[C@]4(C[C@@H]5C[C@]67CCO[C@H]6CCC6NC[C@@]8(c9cccc(OC)c9N(C4)[C@@H]58)[C@@H]67)[C@@H]4OCCC4(C1)[C@H]23", "cell line": "HL-60", "method": "absorbance", "value": ">56.94 µM"}
{"SMILES": "Nc1nc2c(ncn2COC(CO)CO)c(=O)[nH]1", "cell line": "TPA-stimulated BCBL-1", "value": "120 µM"}
{"SMILES": "O=C(NCCc1ccccc1)C1=Cc2ccncc2CC1", "cell line": "MA-104", "value": "<136 µM"}
{"SMILES": "O=S(=O)(c1cccc2cnccc12)N1CCNCC1", "cell line": "U-937", "value": "10.5 µg/mL"}
{"SMILES": "CCOC(=O)c1cc(C(=O)O)c(=O)n2c1[nH]c1ccccc12", "cell line": "HEF", "value": "25 µg/mL"}
{"SMILES": "CCOC(=O)c1cc(CC(=O)c2ccccc2)c(=O)n2c1sc1ccccc12", "cell line": "HEP-2", "value": "40 µg/mL"}